Results of unrelated studies side by side (data: NIAID ChemDB).

All rows: tests on isolated targets; agent: Toxoplasma gondii

Rows are shuffled and stem from different studies. Inhibition is in % at the dose shown (toxicity tests: loss of growth or viability). ICn: concentration for n% inhibition. An empty or dashed field is not shown.

| SMILES | strain or isolate | target | measure | tested at | result |
|---|---|---|---|---|---|
| O=c1cc(O)nc[nH]1 | RH | Uracil phosphoribosyltransferase | inhibition | 2000 µM | <5% |
| Ic1ncnc2nc[nH]c12 | RH | Phosphoribosyltransferase | IC50 |  | >900 µM |
| Nc1nc(N)c2c(ccc3c(Cl)cc(Cl)cc32)n1 |  | Dihydrofolate reductase | IC50 |  | 0.026 µM |
| O=c1[nH]cc(C(F)(F)F)c(=O)[nH]1 | RH | Uracil phosphoribosyltransferase | inhibition | 2000 µM | <5% |
| CC1(C)N=C(N)N=C(N)N1c1ccc(C(=O)c2ccccc2)cc1.Cl | RH | DHFR | IC50 |  | 0.025 µM |
| CCCc1c[nH]c(=O)[nH]c1=O | RH | Uracil phosphoribosyltransferase | IC50 |  | >2000 µM |
| C1CCC([NH2+]C2CCCCC2)CC1.C1CCC([NH2+]C2CCCCC2)CC1.C1CCC([NH2+]C2CCCCC2)CC1.O=P([O-])([O-])C(Br)(Br)P(=O)([O-])O |  | Pyrophosphate-dependent phosphofructokinase | IC50 |  | >2000 µM |
| NS(=O)(=O)c1nc[nH]c1[N+](=O)[O-] | RH | Phosphoribosyltransferase | inhibition | 900 µM | <10% |
| CCOC(=O)/C(=N\Nc1ccc([N+](=O)[O-])cc1OC)P(=O)(OCC)OCC |  | Pyrophosphate-dependent phosphofructokinase | IC50 |  | 60 µM |
| Cn1c(=O)c2[nH]c(=O)[nH]c2n(C)c1=O | RH | Phosphoribosyltransferase | inhibition | 900 µM | <10% |
| CC1(C)N=C(N)N=C(N)N1c1cccc(CCCCOc2ccccc2)c1 | RH | DHFR | IC50 |  | 0.0046 µM |
| Nc1nc(N)c2c(n1)CCCc1cc(Cl)c(Cl)cc1-2 |  | Dihydrofolate reductase | IC50 |  | 0.006 µM |
| Nc1cc(=O)[nH]c(=S)[nH]1 | RH | Uracil phosphoribosyltransferase | IC50 |  | >2000 µM |
| O=C([O-])C(=O)P(=O)([O-])[O-].[Na+].[Na+].[Na+] |  | Pyrophosphate-dependent phosphofructokinase | IC50 |  | >2000 µM |
| Nc1nc2[nH]ccc2c(=O)[nH]1 | RH | Phosphoribosyltransferase | Ki |  | 26 µM |
| CC1(C)N=C(N)N=C(N)N1c1ccc(F)c(C(F)(F)F)c1 | RH | DHFR | IC50 |  | 0.17 µM |
| O=c1[nH]cc(Cl)c(=O)[nH]1 | RH | Uracil phosphoribosyltransferase | IC50 |  | >2000 µM |
| CCc1nc(N)nc(N)c1-c1ccc(Cc2ccccc2)c([N+](=O)[O-])c1 | RH | DHFR | IC50 |  | 0.019 µM |
| S=c1cc[nH]cc1 | RH | Uracil phosphoribosyltransferase | Ki |  | 90 µM |
| CCOC(=O)/C(=N\Nc1ccc(OC)cc1[N+](=O)[O-])P(=O)(OCC)OCC |  | Pyrophosphate-dependent phosphofructokinase | IC50 |  | 100 µM |
| Cc1nc(NS(=O)(=O)c2ccc(N)cc2)nc(C)c1C |  | DHPS | IC50 |  | 1800 µM |
| O=C1CC(=O)NC(=S)N1 | RH | Uracil phosphoribosyltransferase | IC50 |  | >2000 µM |
| Nc1ccc(S(=O)(=O)Nc2cc(Cl)cc(Cl)c2)cc1 |  | DHPS | IC50 |  | 28.8 µM |
| Nc1nc(N)c2c(ccc3ccc(Cl)cc32)n1 |  | Dihydrofolate reductase | IC50 |  | 0.011 µM |
| O=C1CC=Cc2[nH]ccc21 | RH | Phosphoribosyltransferase | inhibition | 900 µM | <10% |
| Cc1cnc(C)c(NS(=O)(=O)c2ccc(N)cc2)n1 |  | DHPS | inhibition | 340 µM | 85% |
| C1CCC([NH2+]C2CCCCC2)CC1.C1CCC([NH2+]C2CCCCC2)CC1.O=C(O)/C(=N\Nc1ccc([N+](=O)[O-])cc1[N+](=O)[O-])P(=O)([O-])[O-] |  | Pyrophosphate-dependent phosphofructokinase | IC50 |  | 350 µM |
| Nc1nc(N)c2c(n1)Cc1cc(Cl)c(Cl)cc1-2 |  | Dihydrofolate reductase | IC50 |  | 0.63 µM |
| Cc1cc2c(cc1C)-c1c(N)nc(N)nc1CC2 | RH | DHFR | IC50 |  | 0.038 µM |
| Nc1nc(N)c2c(n1)Cc1ccc(Cl)cc1-2 |  | Dihydrofolate reductase | IC50 |  | 0.56 µM |
| O=c1cc(Cl)[nH]c(=O)[nH]1 | RH | Uracil phosphoribosyltransferase | inhibition | 2000 µM | <5% |
| CC1(C)N=C(N)N=C(N)N1c1cccc(OCCOc2ccc([N+](=O)[O-])cc2)c1 | RH | DHFR | IC50 |  | 0.024 µM |
| COc1cc([N+](=O)[O-])ccc1NN=C(P(=O)(OC)OC)P(=O)(OC)OC |  | Pyrophosphate-dependent phosphofructokinase | IC50 |  | 180 µM |
| Nc1nc(N)c2c(ccc3cc(Cl)c(Cl)cc32)n1 |  | Dihydrofolate reductase | IC50 |  | 0.043 µM |
| Nc1ncc[nH]1 | RH | Phosphoribosyltransferase | inhibition | 900 µM | <10% |
| CC1(C)N=C(N)N=C(N)N1c1cccc(OCCCOc2ccc(NC(=O)/C=C/C(=O)O)cc2)c1 | RH | DHFR | IC50 |  | 0.0042 µM |
| C1=CN2NC=NC2N=C1 | RH | Phosphoribosyltransferase | inhibition | 900 µM | <10% |
| Cc1cc(NS(=O)(=O)c2ccc(N)cc2)no1 |  | DHPS | IC50 |  | 1938 µM |